Pooled drug test results. Numbers come from NIAID ChemDB, via PubChem.

Common to all: tests on isolated targets; agent: HIV-1; target: Integrase; endpoint: inhibition

Blank or dashed fields: not listed here. Conditions beyond the fields shown may differ between rows. Percent inhibition refers to the dose given; in toxicity tests it is the harm to the cells.

SMILES | method | tested at | value
O=S(=O)(Nc1cc(Cl)c2ccc(/C=C/c3ccccc3)nc2c1O)c1ccc(Cl)cc1 | strand transfer | 0.05 µM | 82.7%
Cc1nn(Cc2ccc3c(c2)c(=O)c(C(=O)O)cn3Cc2ccc([N+](=O)[O-])cc2)c(C)c1Br | strand transfer | 100 µg/mL | <50%
Cc1ccc(Cn2c3ccccc3c3cc(C(=O)NO)ncc32)cc1 | strand transfer | 50 µM | 9%
CCCCOC(=O)C(CNCc1cn([C@H]2C[C@H](n3cc(C)c(=O)[nH]c3=O)O[C@@H]2CO)nn1)C(O)c1cc(Cl)ccc1O | - | 10 µM | 45.6%
COc1ccc(S(=O)(=O)Nc2cc(Cl)c3ccc(/C=C/c4ccccc4)nc3c2O)cc1 | strand transfer | 0.05 µM | 72.9%
O=C(c1ccccc1)N(Cc1cc2ccccc2[nH]c1=O)C1CCCC1 | strand transfer / absorbance | 20 µM | 46.2%
CC[C@H](C)[C@H](NC(=O)[C@@H](N)Cc1c[nH]c2ccccc12)C(=O)N[C@@H](CC(=O)O)C(=O)N[C@@H](CC(N)=O)C(=O)N[C@@H](CC(C)C)C(=O)N[C@@H](CC(=O)O)C(=O)O | - | 0.39 µM | 30%
C#CCNC/C(=C\c1cccc(OC)c1OCc1ccccc1)C(=O)OC | - | 10 µM | 15.2%
COC(=O)C(CCNC(=O)c1ccc(O)c(O)c1)NC(=O)c1ccc(O)c(O)c1 | 3′ processing | 10 µM | 0%
O=C(/C=C(\O)C(=O)O)NCc1cccc(Cl)c1Cl | strand transfer | 70 µM | 80%
C#CCNC/C(=C\c1cccc(OCC)c1OCc1ccccc1)C(=O)OC | - | 10 µM | 51.3%
COc1cccc2cc(CNC3CCCC3)c(=O)[nH]c12 | strand transfer / absorbance | 20 µM | 11.1%
CC(NC(=O)/C=C(\O)C(=O)O)c1ccc(F)cc1 | strand transfer | 70 µM | 40%
COC(=O)C(CCCCNC(=O)/C=C/c1ccc(O)c(O)c1)NC(=O)/C=C/c1ccc(O)c(O)c1 | 3′ processing | 10 µM | 55%
O=S(=O)(Nc1cc(Cl)c2ccc(/C=C/c3ccc(O)cc3)nc2c1O)c1ccc(Cl)cc1 | strand transfer | 0.05 µM | 101.4%
C#CCNCC(C(=O)OCCCC)C(O)c1cccc(OC)c1O | - | 10 µM | 51.7%
COc1ccc2c(c1)c(/C(O)=C/C(=O)C(=O)O)cn2Cc1ccc(C(F)(F)F)cc1 | AlphaScreen | 100 µM | 40%
COC(=O)/C(=C/c1ccccc1OCc1ccccc1)CNCc1cn([C@H]2C[C@H](n3cc(C)c(=O)[nH]c3=O)O[C@@H]2CO)nn1 | - | 10 µM | 36%
O=C(NCCCC[C@H](NC(=O)c1cc(O)c(O)c(O)c1)C(=O)O)c1cc(O)c(O)c(O)c1 | 3′ processing | 10 µM | 100%
C#CCNC/C(=C\c1ccccc1Oc1ccccc1)C(=O)OC | - | 10 µM | 31%
COC(=O)c1cc(O)c(O)c(O)c1 | 3′ processing | 125 µM | 40.1%
Cc1ccc2c(c1)c(C1CCCCC1)nc1ccccc12 | strand transfer | 50 µM | 20.65%
O=C(/C=C/c1ccc(O)c(O)c1)NCCCC[C@H](NC(=O)/C=C/c1ccc(O)c(O)c1)C(=O)O | 3′ processing | 10 µM | 78%
O=c1[nH]c2ccccc2cc1CNC1CCCC1 | strand transfer / absorbance | 20 µM | 45.5%
CCOc1cccc(/C=C(\CNCc2cn([C@H]3C[C@H](n4cc(C)c(=O)[nH]c4=O)O[C@@H]3CO)nn2)C(=O)OC)c1OCc1ccccc1 | - | 10 µM | 18.7%
COC(=O)[C@H](CCCCNC(=O)c1cc(O)c(O)c(O)c1)NC(=O)c1cc(O)c(O)c(O)c1 | 3′ processing | 10 µM | 0%
COc1ccc(CNC(=O)/C=C(\O)C(=O)O)c(OC)c1 | strand transfer | 70 µM | 65%
O=S(=O)(Nc1cc(Cl)c2ccc(/C=C/c3ccc(Br)cc3)nc2c1O)c1ccccc1 | strand transfer | 0.05 µM | 74.7%
COc1ccc2[nH]c(=O)c(CN(C(=O)c3ccccc3)C3CCCC3)cc2c1 | strand transfer / absorbance | 20 µM | 39.9%
COC(=O)C(CCCNC(=O)c1ccc(O)c(O)c1)NC(=O)c1ccc(O)c(O)c1 | 3′ processing | 10 µM | 0%
CCCCCCCCCCCCCCCC(=O)NC1C(COP(=O)(O)OC2CC(COP(=O)(O)OC3C(O)C(CO)OC3n3cnc4c(N)ncnc43)OC2n2cnc3c(N)ncnc32)OC(n2cnc3c(N)ncnc32)C1O | - | 1000 µM | 0%
C[C@H](NC(=O)/C=C(\O)C(=O)O)c1ccccc1 | strand transfer | 70 µM | 25%

The first 4 rows once more:

O=S(=O)(Nc1cc(Cl)c2ccc(/C=C/c3ccccc3)nc2c1O)c1ccc(Cl)cc1 ; method: strand transfer ; tested at: 0.05 µM ; value: 82.7%
Cc1nn(Cc2ccc3c(c2)c(=O)c(C(=O)O)cn3Cc2ccc([N+](=O)[O-])cc2)c(C)c1Br ; method: strand transfer ; tested at: 100 µg/mL ; value: <50%
Cc1ccc(Cn2c3ccccc3c3cc(C(=O)NO)ncc32)cc1 ; method: strand transfer ; tested at: 50 µM ; value: 9%
CCCCOC(=O)C(CNCc1cn([C@H]2C[C@H](n3cc(C)c(=O)[nH]c3=O)O[C@@H]2CO)nn1)C(O)c1cc(Cl)ccc1O ; tested at: 10 µM ; value: 45.6%